{"source": "paper PMC11992040", "target": "Sm-gp41 (PM): soluble SARS-CoV-2 spike trimer with HIV gp41 molecular clamp, paucimannose glycoform (SARS-CoV-2 | HIV)", "experiment": "SPR; Biacore T200; spike trimer (10 µg/mL) captured on anti-RBD VHH 11-human IgG1 Fc amine-coupled to a CM-5 chip; hACE2 flowed over, single cycle kinetics, three concentrations, 5-fold dilution from 200 nM; 25 °C; PBS, 0.05% Tween 20, 3.4 mM EDTA; 1:1 binding model; values of single injection cycles (n = 3)", "note": "“And” between values parts separate entries of the source, which are not always exact repeats. Equal entries are not always repeated."}
{"substance": "monomeric human ACE2 (from UniProt Q9BYF1 18-805) (receptor)", "values": [{"measurement": "Kd", "value": "52.1 nM and 54.8 nM"}]}
